# HIV-1 5' UTR: DMS reactivities by position

Data from the supplement of Ye et al. 2022, doi:10.1038/s41594-022-00746-2.

Sequence of the HIV-1 NL4-3 5' RNA, positions 1 to 437, as numbered in the source:
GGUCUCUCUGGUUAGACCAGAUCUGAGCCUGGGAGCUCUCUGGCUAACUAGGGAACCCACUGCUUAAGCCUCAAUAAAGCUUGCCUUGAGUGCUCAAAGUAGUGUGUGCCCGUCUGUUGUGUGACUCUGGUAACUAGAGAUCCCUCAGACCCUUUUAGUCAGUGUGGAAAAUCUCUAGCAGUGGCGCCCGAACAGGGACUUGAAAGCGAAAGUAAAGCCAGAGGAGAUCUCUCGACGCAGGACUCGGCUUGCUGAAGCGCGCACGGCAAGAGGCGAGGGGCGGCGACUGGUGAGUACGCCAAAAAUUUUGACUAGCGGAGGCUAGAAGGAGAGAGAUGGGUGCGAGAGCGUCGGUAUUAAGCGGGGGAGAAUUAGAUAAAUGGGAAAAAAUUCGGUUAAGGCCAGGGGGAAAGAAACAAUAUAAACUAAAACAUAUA

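Randomly mutated transcripts starting with one, two or three G (1G, 2G, 3G), capped or uncapped, were folded for 30 min at 37 °C. Monomer and dimer bands were cut from native gels after folding in high salt (300 mM KCl, 5 mM MgCl2) or low salt (40 mM KCl, 0.1 mM MgCl2). Gel slices were treated with 170 mM dimethyl sulfate for 15 min at 37 °C and read by mutational profiling against an ethanol control.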

Values are winsor-normalised DMS reactivities of A and C; higher means more reactive, usually unpaired.
One numbering serves 1G, 2G and 3G.
A position is written with its base.

position,domain,3G capped high-salt dimer,3G capped high-salt monomer,3G capped low-salt dimer,3G capped low-salt monomer
A66,PolyA,0.82,0.85,0.79,0.76
A67,PolyA,0.68,0.94,0.68,0.99
C69,PolyA,0.11,0.09,0.12,0.05
C70,PolyA,0.08,0.05,0.07,0.02
C72,PolyA,0.13,0.11,0.14,0.08
A73,PolyA,0.04,0.04,0.04,0.04
A74,PolyA,0.76,0.91,0.78,0.97
A76,PolyA,0.24,0.28,0.23,0.23
A77,PolyA,0.74,0.75,0.71,0.79
A78,PolyA,0.77,0.92,0.74,0.85
C80,PolyA,0.25,0.29,0.22,0.30
C84,PolyA,0.39,0.21,0.36,0.13
C85,PolyA,0.26,0.16,0.24,0.10
A89,PolyA,0.65,0.83,0.63,0.71
C93,PolyA,0.09,0.04,0.07,0.02
C95,PolyA,0.39,0.44,0.37,0.47
A96,PolyA,0.28,0.34,0.28,0.29
A97,PolyA,0.52,0.68,0.55,0.67
A98,PolyA,0.54,0.63,0.59,0.60
A101,PolyA,0.28,0.30,0.30,0.27
C109,U5,0.09,0.07,0.07,0.06
C110,U5,0.08,0.12,0.07,0.13
C111,U5,0.14,0.29,0.12,0.31
C114,none,0.19,0.18,0.15,0.16
A124,none,1.08,1.32,1.12,1.43
C125,PAS,0.06,0.07,0.06,0.03
C127,PAS,0.03,0.02,0.03,0.02
A132,PBS,0.48,0.53,0.43,0.43
A133,PBS,1.32,1.54,1.21,1.30
C134,PBS,0.16,0.16,0.18,0.15
A136,PBS,0.10,0.10,0.10,0.08
A138,PBS,0.11,0.11,0.11,0.11
A140,PBS,0.35,0.41,0.35,0.39
C142,PBS,0.06,0.08,0.07,0.08
C143,PBS,0.03,0.02,0.03,0.02
C144,PBS,0.03,0.02,0.03,0.02
C146,PBS,0.11,0.13,0.12,0.12
A147,PBS,0.42,0.44,0.41,0.41
A149,PBS,0.06,0.08,0.07,0.08
C150,PBS,0.04,0.05,0.04,0.05
C151,PBS,0.68,0.86,0.72,0.80
C152,PBS,0.76,0.89,0.77,0.85
A157,PBS,0.91,0.97,0.88,0.89
C160,PBS,0.07,0.06,0.06,0.05
A161,PBS,0.46,0.51,0.44,0.44
A168,PBS,0.43,0.49,0.43,0.48
A169,PBS,0.68,0.76,0.68,0.75
A170,PBS,0.47,0.53,0.48,0.50
A171,PBS,0.41,0.44,0.39,0.41
C173,PBS,0.03,0.02,0.03,0.02
C175,PBS,0.03,0.02,0.03,0.02
A177,PBS,0.26,0.22,0.27,0.19

The last 5 entries again:

| position | domain | 3G capped high-salt dimer | 3G capped high-salt monomer | 3G capped low-salt dimer | 3G capped low-salt monomer |
|---|---|---|---|---|---|
| A170 | PBS | 0.47 | 0.53 | 0.48 | 0.50 |
| A171 | PBS | 0.41 | 0.44 | 0.39 | 0.41 |
| C173 | PBS | 0.03 | 0.02 | 0.03 | 0.02 |
| C175 | PBS | 0.03 | 0.02 | 0.03 | 0.02 |
| A177 | PBS | 0.26 | 0.22 | 0.27 | 0.19 |